Pooled drug test results. Numbers come from NIAID ChemDB, via PubChem.

Shared fields: tests in culture; species: Herpes simplex virus 1; measure: EC90

ECn is the concentration giving n% inhibition of infection, replication or growth. Blank or dashed fields: not listed here. Neighbouring rows are from separate reports.

Cc1cn([C@H]2C[C@H](O)[C@@H](CO)O2)c(=O)nc1N ; read by: virus yield ; cell line: HeLa ; value: 32 µM
Cc1c(NC(=O)CCCNC(=O)OCc2ccccc2)ccc2nc(NC(C)(C)C(=O)N(C)CCc3ccccn3)oc(=O)c12 ; read by: plaque count ; cell line: VERO ; value: >12.5 µM
Nc1ccn([C@@H]2O[C@H](CO)C[C@H]2O)c(=O)n1 ; read by: virus yield ; cell line: HeLa ; value: >250 µM
Cc1c(NC(=O)OC(C)(C)C)ccc2nc(N(CCc3ccccc3)C(=O)NCc3ccccn3)oc(=O)c12 ; read by: plaque count ; cell line: VERO ; value: 5.9 µM
CCCCCCCC/C=C\CCCCCCCOCCCOP(=O)(O)CO[C@H](CO)Cn1cnc2c(N)ncnc21 ; read by: hybridisation ; cell line: MRC-5 ; value: 0.0025 µM
Nc1ncnc2c1c(I)cn2COCCO ; read by: virus yield ; cell line: HFF ; value: >100 µM
CC(=O)O[C@H]1[C@@H](OC(C)=O)[C@@H](CO[Si](c2ccccc2)(c2ccccc2)C(C)(C)C)O[C@@H](O[C@H]2[C@H](OC(C)=O)[C@H]3Sc4c(n(C)c(=O)n(C)c4=O)O[C@H]3O[C@@H]2CO[Si](c2ccccc2)(c2ccccc2)C(C)(C)C)[C@@H]1OC(C)=O ; cell line: VERO ; value: >100 µM
OC[C@H]1O[C@@H](c2cc(Cl)nc3cc(Cl)c(Cl)cc23)C(O)C1O ; read by: virus yield ; cell line: HFF ; value: 31 µM
Cc1cccc(C)c1N(CC(=O)Nc1ccc(-c2ncon2)cc1)C(=O)C1CCS(=O)(=O)CC1 ; strain: 1 (KOS) ; read by: plaque count ; cell line: HEF ; value: 0.23 µM
Cn1c2c(c(=O)n(C)c1=O)S[C@@H]1[C@H](O2)O[C@H](COc2ccccc2)[C@@H](OCc2ccccc2)[C@@H]1OCc1ccccc1 ; cell line: VERO ; value: >100 µM
Cc1c(NC(=O)c2scc(S(=O)(=O)C(C)C)c2Cl)ccc2nc(NC(C)(C)C(=O)N(C)CCc3ccccn3)oc(=O)c12 ; read by: plaque count ; cell line: VERO ; value: >12.5 µM
Nc1nc(=O)n([C@H]2C[C@H](O)[C@@H](CO)O2)cc1F ; read by: virus yield ; cell line: HeLa ; value: 50 µM
Cc1c(NC(=O)CCNC(=O)OC(C)(C)C)ccc2nc(N(C)CC(=O)N(C)CCc3ccccn3)oc(=O)c12 ; read by: plaque count ; cell line: VERO ; value: >20 µM
Nc1ncnc2c1c(Cl)cn2COC(CO)CO ; read by: virus yield ; cell line: HFF ; value: 17 µM
Cc1c(NC(=O)c2ccccc2)ccc2nc(NC(C)(C)C(=O)N(C)CCc3ccccn3)oc(=O)c12 ; read by: plaque count ; cell line: VERO ; value: >12.5 µM
Cn1c2c(c(=O)n(C)c1=O)S[C@H]1[C@@H](O2)O[C@H](CO)[C@@H](O)[C@@H]1O ; cell line: VERO ; value: >100 µM
Cc1c(NC(=O)c2ccccc2[N+](=O)[O-])ccc2nc(NC(C)(C)C(=O)N(C)CCc3ccccn3)oc(=O)c12 ; read by: plaque count ; cell line: VERO ; value: >12.5 µM
Cn1cc(C(=O)NCc2ccc(Cl)cc2)c(=O)c2cc(CN3CCOCC3)ccc21 ; strain: KOS ; read by: plaque count ; cell line: VERO ; value: 8.5 µM

2 of the rows above, restated:

SMILES | strain | read by | cell line | value
Cc1c(NC(=O)CCCNC(=O)OCc2ccccc2)ccc2nc(NC(C)(C)C(=O)N(C)CCc3ccccn3)oc(=O)c12 |  | plaque count | VERO | >12.5 µM
Nc1ncnc2c1c(Cl)cn2COC(CO)CO |  | virus yield | HFF | 17 µM